Compound potency records, mixed from different reports. Data source: NIAID ChemDB in PubChem.

Common to all: tests on isolated targets; species: HIV-1; protein: Reverse transcriptase

a–b is a range or a potency band.

{"structure": "CCC1(c2ccc(I)cc2)Oc2ccccc2-n2cccc2C1=O", "changes": "RT-V106A", "measure": "IC50", "read by": "nucleotide incorporation / radiometric", "result": "17.3 µM"}
{"structure": "O=c1c2cccn2c2ccccc2n1CCNC(=S)Nc1ccc(Br)cn1", "changes": "RT-Y188L", "measure": "Ki", "read by": "nucleotide incorporation", "result": "2.5 µM"}
{"structure": "O=C(/C=C/c1ncc(-c2ccccc2)cn1)Nc1cc(-c2ccc3c(c2)CCCC3)[nH]n1", "strain": "NL4-3", "changes": "K103N", "measure": "IC50", "read by": "RT activity / nucleotide incorporation / luminescence", "result": "0.19 µM"}
{"structure": "Cc1cn([C@H]2C=C[C@@H](COP(=O)(O)OP(=O)(O)OP(=O)(O)O)O2)c(=O)[nH]c1=O", "measure": "Ki", "result": "0.0014 µM"}
{"structure": "CC(C)=CCN1Cc2cccc3[nH]c(=S)n(c23)C[C@@H]1C", "strain": "RT-WT", "measure": "IC50", "read by": "RT activity", "result": "0.9 µM"}
{"structure": "Cc1cc(C)c(-n2nnnc2SCC(=O)Nc2cccc3ncccc23)c(C)c1", "measure": "IC50", "read by": "nucleotide incorporation / radiometric", "result": "<2 µM"}
{"structure": "c1ccc(C2SCc3nc4ccccc4n32)cc1", "changes": "RT-V179D", "measure": "IC50", "result": "~50 µM"}
{"structure": "CCN1c2ncc(CCOc3ccc(CCC(=O)NN)c4ccccc34)cc2C(=O)N(C)c2cccnc21", "changes": "RT-Y188L", "measure": "IC50", "read by": "nucleotide incorporation / radiometric", "result": ">1 µM"}
{"structure": "CCC1(c2ccc(COc3ccccc3)cc2)Oc2ccccc2-n2cccc2C1=O", "changes": "RT-L100I", "measure": "IC50", "read by": "nucleotide incorporation / radiometric", "result": "0.2 µM"}
{"structure": "Cc1cc(C)c(-n2nnnc2SCC(=O)Nc2cccnc2Cl)c(C)c1", "measure": "IC50", "read by": "nucleotide incorporation / radiometric", "result": "<2 µM"}
{"structure": "Cc1c(Sc2ccccc2)n(COCCO)c(=O)[nH]c1=O", "changes": "RT-Y188L", "measure": "IC50", "read by": "nucleotide incorporation", "result": ">10 µM"}
{"structure": "Cc1cc2c(cc1C)n1cccc1c(=O)n2CCNC(=S)Nc1ccc(Br)cn1", "measure": "Ki", "read by": "nucleotide incorporation", "result": "0.05 µM"}
{"structure": "CN(C)c1ccc(-n2nnnc2SCC(=O)Nc2ccccc2Cl)c2ccccc12", "measure": "IC50", "read by": "nucleotide incorporation / radiometric", "result": "<2 µM"}
{"structure": "CCc1c([Se]c2ccccn2)n(COCc2ccccc2)c(=O)[nH]c1=O", "changes": "RT-T181C", "measure": "IC50", "read by": "RT activity", "result": "6.8 µM"}
{"structure": "O=C(/C=C/c1ncccn1)Nc1cc(-c2ccc3c(c2)CCCC3)[nH]n1", "strain": "NL4-3", "changes": "K103N", "measure": "IC50", "read by": "RT activity / nucleotide incorporation / luminescence", "result": "0.22 µM"}
{"structure": "Cc1cc(C)cc(C(=O)c2cc(Cl)ccc2OCCN2CCC(=O)NC2=O)c1", "measure": "Ki", "conditions": "pseudotyped", "read by": "RT activity", "result": "2.4 µM"}
{"structure": "CCN1c2ncc(CCc3cnc4ccccc4c3)cc2C(=O)N(C)c2ccc(F)nc21", "strain": "WT", "measure": "IC50", "read by": "nucleotide incorporation / radiometric", "result": "<1 µM"}
{"structure": "CCc1c([Se]c2ccccc2)n(COCc2ccccc2)c(=O)[nH]c1=O", "strain": "RT-WT", "measure": "IC50", "read by": "RT activity", "result": "0.4 µM"}
{"structure": "CCc1c(Sc2ccccn2)n(COCc2ccccc2)c(=O)[nH]c1=O", "changes": "RT-Y181C", "measure": "IC50", "result": ">50 µM"}
{"structure": "Cc1c(C(=O)N(C)Cc2cccnc2)[nH]c(C(N)=O)c1S(=O)(=O)c1ccccc1", "strain": "NL4-3", "changes": "WT", "measure": "IC50", "read by": "RT activity / nucleotide incorporation / luminescence", "result": "0.052 µM"}
{"structure": "O=C(CSc1nnnn1-c1cccc2ccccc12)Nc1ccccn1", "measure": "IC50", "read by": "nucleotide incorporation / radiometric", "result": "<2 µM"}
{"structure": "O=c1cnc2ccccc2n1CCNC(=S)Nc1ccc(Br)cn1", "changes": "RT-V106A", "measure": "Ki", "read by": "nucleotide incorporation", "result": "0.62 µM"}
{"structure": "CC(Sc1nnnn1-c1cccc2ccccc12)C(=O)Nc1ccccc1Cl", "measure": "IC50", "read by": "nucleotide incorporation / radiometric", "result": "<2 µM"}
{"structure": "CCc1ccc(N2CC(O)Cn3c2nc2c3c(=O)n(C)c(=O)n2C)cc1", "measure": "IC50", "read by": "nucleotide incorporation / absorbance", "result": ">100 µM"}
{"structure": "Cc1cc(C)cc(C(=O)c2cc(Cl)ccc2OCCN2C(=O)NC(=O)C(C)C2C)c1", "changes": "K103N + Y181C", "measure": "Ki", "conditions": "pseudotyped", "read by": "RT activity", "result": "8.6 µM"}
{"structure": "CCN1c2ncc(COc3cccc(N)c3)cc2C(=O)N(C)c2ccc(Cl)nc21", "strain": "WT", "measure": "IC50", "read by": "nucleotide incorporation / radiometric", "result": "<1 µM"}
{"structure": "Cc1occc1C(=S)Nc1ccc(Cl)c(/C=N/OC(C)(C)C)c1", "changes": "RT-K103N", "measure": "IC50", "result": ">100 µM"}
{"structure": "O=C(Nc1nnc(-c2ccc3c(c2)CCCC3)o1)C1=COCCO1", "strain": "NL4-3", "changes": "G190A/Y181C/K103N", "measure": "IC50", "read by": "RT activity / nucleotide incorporation / luminescence", "result": "9.1 µM"}
{"structure": "CCN1c2ncc(CCOc3ccc4cc(C(=O)O)ccc4c3)cc2C(=O)N(C)c2cccnc21", "changes": "RT-V106A", "measure": "IC50", "read by": "nucleotide incorporation / radiometric", "result": "0.1–1 µM"}
{"structure": "Cc1cc(C)c(-n2nnnc2SCC(=O)Nc2ccc([N+](=O)[O-])cc2C)c(C)c1", "measure": "IC50", "read by": "nucleotide incorporation / radiometric", "result": "<2 µM"}
{"structure": "CCN1c2ncc(CCOc3ccc(C(=O)O)c4ccccc34)cc2C(=O)N(C)c2ccc(Cl)nc21", "changes": "RT-K103N Y181C", "measure": "IC50", "read by": "nucleotide incorporation / radiometric", "result": "<0.1 µM"}
{"structure": "CCOc1cccc(C2(CC)Oc3ccccc3-n3cccc3C2=O)c1", "changes": "RT-Y181I", "measure": "IC50", "read by": "nucleotide incorporation / radiometric", "result": "2.1 µM"}
{"structure": "O=c1c2cccn2ccn1CCNC(=S)Nc1ccc(Br)cn1", "measure": "Ki", "read by": "nucleotide incorporation", "result": "0.018 µM"}
{"structure": "CCC1(c2cccc(COc3ccccc3)c2)Oc2ccccc2-n2cccc2C1=O", "changes": "RT-L100I", "measure": "IC50", "read by": "nucleotide incorporation / radiometric", "result": "1.5 µM"}
{"structure": "CCN1c2ncc(COc3ccncc3)cc2C(=O)N(C)c2ccc(F)nc21", "strain": "WT", "measure": "IC50", "read by": "nucleotide incorporation / radiometric", "result": "<1 µM"}
{"structure": "COc1ccccc1NC(=O)CSc1nnnn1-c1cccc2ccccc12", "measure": "IC50", "read by": "nucleotide incorporation / radiometric", "result": "<2 µM"}
{"structure": "CCN1c2ncc(CCOc3ccc(CCC(=O)O)c4ccccc34)cc2C(=O)N(C)c2ccc(C)nc21", "changes": "RT-Y188L", "measure": "IC50", "read by": "nucleotide incorporation / radiometric", "result": ">1 µM"}
{"structure": "CCC1(c2ccc(CNc3cccc(F)c3)cc2)Oc2ccccc2-n2cccc2C1=O", "changes": "RT-Y188L", "measure": "IC50", "read by": "nucleotide incorporation / radiometric", "result": ">10 µM"}
{"structure": "Cc1cc(C)c(-n2nnnc2SCC(=O)Nc2cccc3cccnc23)c(C)c1", "measure": "IC50", "read by": "nucleotide incorporation / radiometric", "result": "<2 µM"}
{"structure": "O=C(Nc1cc(-c2ccc3c(c2)CCCC3)[nH]n1)c1ccno1", "strain": "NL4-3", "changes": "K103N", "measure": "IC50", "read by": "RT activity / nucleotide incorporation / luminescence", "result": "1 µM"}
{"structure": "CCC1(c2ccc(COc3cccnc3)cc2)Oc2ccccc2-n2cccc2C1=O", "changes": "RT-K103N", "measure": "IC50", "read by": "nucleotide incorporation / radiometric", "result": "2 µM"}
{"structure": "CCN1c2ncc(CCOc3ccc(C(=O)O)c4c3CCCC4)cc2C(=O)N(C)c2cccnc21", "changes": "RT-V106A", "measure": "IC50", "read by": "nucleotide incorporation / radiometric", "result": ">1 µM"}
{"structure": "CC(C)=CCOc1cc(NC(=S)c2ccoc2C)ccc1Cl", "changes": "RT-Y188L", "measure": "IC50", "result": ">100 µM"}
{"structure": "CCN1c2ncc(CNc3cccc([N+](=O)[O-])c3)cc2C(=O)N(C)c2ccc(Cl)nc21", "changes": "RT-Y181C", "measure": "IC50", "read by": "nucleotide incorporation / radiometric", "result": "<1 µM"}
{"structure": "CNc1ccc(Cl)cc1S(=O)(=O)c1ccccc1[N+](=O)[O-]", "changes": "RT-Y181I", "measure": "IC50", "result": "22 µM"}
{"structure": "CCN1c2ncc(CCOc3ccc(C(=O)O)c4ccccc34)cc2C(=O)N(C)c2cccnc21", "changes": "RT-K103N Y181C", "measure": "IC50", "read by": "nucleotide incorporation / radiometric", "result": "0.1–1 µM"}
{"structure": "Cc1cn([C@H]2C=C[C@@H](COP(=O)(O)OP(=O)(O)OP(=O)(O)O)O2)c(=O)[nH]c1=O", "changes": "RT-Y188L", "measure": "Ki", "read by": "RT activity", "result": "0.04 µM"}
{"structure": "CCN1c2ncc(CO)cc2C(=O)N(C)c2ccc(Cl)nc21", "strain": "WT", "measure": "IC50", "read by": "nucleotide incorporation / radiometric", "result": "<1 µM"}
{"structure": "CCC1(c2cccc(Cl)c2)Oc2ccccc2-n2cccc2C1=O", "changes": "RT-Y188L", "measure": "IC50", "read by": "nucleotide incorporation / radiometric", "result": "0.5 µM"}
{"structure": "CCN1c2ncccc2NC(=O)c2cc(CCc3ccccc3)cnc21", "strain": "WT", "measure": "IC50", "read by": "nucleotide incorporation / radiometric", "result": "<1 µM"}
{"structure": "C/C=C/CSc1cc(NC(=S)c2ccsc2C)ccc1Cl", "changes": "RT-L100I", "measure": "IC50", "result": "9.5 µM"}

The first 5 rows once more:

{"structure": "CCC1(c2ccc(I)cc2)Oc2ccccc2-n2cccc2C1=O", "changes": "RT-V106A", "measure": "IC50", "read by": "nucleotide incorporation / radiometric", "result": "17.3 µM"}
{"structure": "O=c1c2cccn2c2ccccc2n1CCNC(=S)Nc1ccc(Br)cn1", "changes": "RT-Y188L", "measure": "Ki", "read by": "nucleotide incorporation", "result": "2.5 µM"}
{"structure": "O=C(/C=C/c1ncc(-c2ccccc2)cn1)Nc1cc(-c2ccc3c(c2)CCCC3)[nH]n1", "strain": "NL4-3", "changes": "K103N", "measure": "IC50", "read by": "RT activity / nucleotide incorporation / luminescence", "result": "0.19 µM"}
{"structure": "Cc1cn([C@H]2C=C[C@@H](COP(=O)(O)OP(=O)(O)OP(=O)(O)O)O2)c(=O)[nH]c1=O", "measure": "Ki", "result": "0.0014 µM"}
{"structure": "CC(C)=CCN1Cc2cccc3[nH]c(=S)n(c23)C[C@@H]1C", "strain": "RT-WT", "measure": "IC50", "read by": "RT activity", "result": "0.9 µM"}

Lines come from different laboratories, so protocols vary. ICn is the concentration giving n% inhibition.